The record followed here is patent publication US8425945B2, “Methods and compositions for regulating biofilm development” (NewSouth Innovations Pty Limited, priority 2005, dated 2013).

The subject of assay [1] is P. aeruginosa PAO1-GFP. Nature of the assay: Biofilm formation (crystal violet) and planktonic growth in 96-well plates. As to conditions: for planktonic growth (fluorescence) / biofilm formation (crystal violet, OD490 nm): 24 hours.
Assay [2] concerns V. cholerae biofilms. Nature of the assay: SNP in combination with tetracycline on biofilms. Conditions: SNP with tetracycline 6 μg/mL (below the MIC), 24 hours.
Assay [3] has as its system Staphylococcus epidermidis. Nature of the assay: Inhibition of biofilm formation on glass slides, SNP added continuously. Conditions: concentration-dependent.
[4] abbreviates: SNP in the micromolar and nanomolar ranges.

Some compounds may have been tested in ways that are not shown here.

Take sodium nitroprusside: the “planktonic growth (fluorescence)” value is recorded as “decrease in planktonic growth” in assay [1] (25 mM-100 mM SNP, in comparison to untreated) and “increase in planktonic growth” in assay [1] (setting [4]). Further, the “biofilm formation (crystal violet, OD490 nm)” value is “increase in biofilm formation” in assay [1] (25 mM-100 mM SNP, in comparison to untreated biofilm) and “decrease in biofilm formation” in assay [1] (setting [4]). The “SNP concentration giving the highest effect” value in assay [1] (tested 25 nM to 100 mM) is on record as 500 nM. The “antimicrobial activity of tetracycline on biofilms” value in assay [2] is “enhances the antimicrobial activity of tetracycline”. Moreover, in assay [3], the biofilm formation entry was “can prevent the formation of a biofilm”.
